This test is filed under the species Rattus norvegicus. The test is described as follows: Ratio of Kd for rat brain voltage-gated sodium channel Nav1.2 F385C mutant to Kd for rat brain voltage-gated sodium channel Nav1.2.

Regarding `N=C(N)NCCC[C@@H]1NC(=O)[C@H](CO)NC(=O)[C@H](Cc2cnc[nH]2)NC(=O)[C@H](CC(=O)O)NC(=O)[C@H](CCCNC(=N)N)NC(=O)[C@@H]2CSSC[C@H](N)C(=O)N[C@H]3CSSC[C@H](NC1=O)C(=O)N[C@H](C(N)=O)CSSC[C@H](NC(=O)[C@H](CC(N)=O)NC3=O)C(=O)N[C@@H](CO)C(=O)N[C@@H](CO)C(=O)N[C@@H](CCCCN)C(=O)N[C@@H](Cc1c[nH]c3ccccc13)C(=O)N2`, the Ratio came out at 2.

These data come from ChEMBL document CHEMBL2401726, “Expanding chemical diversity of conotoxins: peptoid-peptide chimeras of the sodium channel blocker μ-KIIIA and its selenopeptide analogues” (2013).
